Measured values published in article PMC8247773, “Benzohydrazide and Phenylacetamide Scaffolds: New Putative ParE Inhibitors” (Frontiers in Bioengineering and Biotechnology, 2021).

The chains behind the UniProt entries cited, without tags or fusion partners.
UniProt P20083, whole entry: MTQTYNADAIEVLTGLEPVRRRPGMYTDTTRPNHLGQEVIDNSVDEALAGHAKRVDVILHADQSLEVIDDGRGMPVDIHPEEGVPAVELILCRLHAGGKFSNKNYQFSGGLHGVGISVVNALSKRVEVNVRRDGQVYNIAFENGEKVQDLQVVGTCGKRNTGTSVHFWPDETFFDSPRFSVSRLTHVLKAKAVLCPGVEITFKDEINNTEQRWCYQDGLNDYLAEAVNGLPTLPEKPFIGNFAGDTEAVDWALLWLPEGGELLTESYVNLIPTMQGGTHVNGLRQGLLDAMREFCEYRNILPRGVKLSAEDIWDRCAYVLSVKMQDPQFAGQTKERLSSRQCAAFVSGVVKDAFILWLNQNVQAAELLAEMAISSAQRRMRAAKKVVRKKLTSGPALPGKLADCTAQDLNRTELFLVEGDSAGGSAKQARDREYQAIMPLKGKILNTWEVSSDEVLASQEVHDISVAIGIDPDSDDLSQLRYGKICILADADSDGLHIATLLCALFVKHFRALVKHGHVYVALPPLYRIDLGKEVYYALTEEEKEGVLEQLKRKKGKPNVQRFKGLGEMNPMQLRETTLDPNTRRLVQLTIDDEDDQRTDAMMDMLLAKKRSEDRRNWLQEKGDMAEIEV
UniProt P0AFI2, whole entry partner: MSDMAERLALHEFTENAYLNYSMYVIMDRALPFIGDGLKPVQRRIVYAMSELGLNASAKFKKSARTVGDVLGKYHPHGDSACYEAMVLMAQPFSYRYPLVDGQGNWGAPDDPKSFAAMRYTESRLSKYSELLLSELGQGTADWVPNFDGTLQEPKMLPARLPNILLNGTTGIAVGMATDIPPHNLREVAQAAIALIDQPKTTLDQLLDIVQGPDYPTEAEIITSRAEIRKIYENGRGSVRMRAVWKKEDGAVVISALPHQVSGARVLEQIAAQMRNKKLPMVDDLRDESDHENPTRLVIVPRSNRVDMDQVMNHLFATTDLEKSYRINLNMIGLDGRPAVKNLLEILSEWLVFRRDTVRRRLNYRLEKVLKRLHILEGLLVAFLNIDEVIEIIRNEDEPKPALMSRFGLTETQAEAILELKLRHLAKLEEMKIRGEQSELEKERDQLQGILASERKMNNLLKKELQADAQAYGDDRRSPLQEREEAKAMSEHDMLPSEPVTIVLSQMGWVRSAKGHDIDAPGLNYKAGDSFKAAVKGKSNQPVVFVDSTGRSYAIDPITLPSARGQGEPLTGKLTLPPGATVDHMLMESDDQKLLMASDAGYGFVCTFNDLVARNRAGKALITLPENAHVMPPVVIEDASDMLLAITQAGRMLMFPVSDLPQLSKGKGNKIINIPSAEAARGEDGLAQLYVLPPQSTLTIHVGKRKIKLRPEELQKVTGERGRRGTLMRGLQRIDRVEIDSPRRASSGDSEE

Assays:
[1] = test system: Escherichia coli (NCIM 2065); assay: Antibacterial susceptibility test, microbroth dilution MIC; details: E. Coli (NCIM 2065); mean ± SD
[2] = test system: MRSA (ATCC43300); assay: as above; details: mean ± SD
[3] = test system: MRSA (NCIM 5021); assay: as above; details: mean ± SD
[4] = test system: Escherichia coli (NCIM 2065); assay: Minimum bactericidal concentration (MBC); format: cell-based; details: E. Coli (NCIM 2065)
[5] = molecular target: E. coli ParE enzyme (Escherichia coli, UniProt P20083); assay: E. coli ParE ATPase enzyme inhibition assay (ProFoldin kit, malachite green); details: ATPase activity, mean ± SD (n = 3)
[6] = test system: Klebsiella pneumonia (NCIM 2706); details: ref Yele et al., 2020, 2021; cited from earlier work
[7] = test system: Pseudomonas aeruginosa (NCIM 2036); details: ref Yele et al., 2020, 2021; cited from earlier work
[8] = test system: Escherichia coli (NCIM 2567); details: ref Yele et al., 2020, 2021; cited from earlier work
[9] = test system: Staphylococcus epidermis (NCIM 2493); details: ref Yele et al., 2020, 2021; cited from earlier work
[10] = test system: Staphylococcus aureus (NCIM 5022); details: ref Yele et al., 2020, 2021; cited from earlier work
[11] = test system: Mycobacterium tuberculosis (NCIM 2984); details: ref Yele et al., 2020, 2021; cited from earlier work

SMILES: COc1ccc(NNC(=O)CSc2nc3ccccc3s2)cc1
- Minimum inhibitory concentration [1]: 4.70 ± 0.41 µg/mL (≈ 13.6 µM)
- Minimum inhibitory concentration [2]: 4.92 ± 0.05 µg/mL (≈ 14.2 µM)
- Minimum inhibitory concentration [3]: 4.94 ± 0.05 µg/mL (≈ 14.3 µM)
- MBC [4]: 4.59 ± 0.26 µg/mL (≈ 13.3 µM)
- IC50 against E. coli ParE enzyme [5]: 2.78 µg/mL (≈ 8.05 µM)
- Minimum inhibitory concentration (MIC) K. p [6]: 3.25
- Minimum inhibitory concentration (MIC) P. a [7]: 7.99
- Minimum inhibitory concentration (MIC) E. c [8]: 8.20
- Minimum inhibitory concentration (MIC) S. e [9]: 0.95
- Minimum inhibitory concentration (MIC) S. a [10]: 0.71
- Minimum inhibitory concentration (MIC) M. t [11]: 2.967

In brackets after ≈: the same amount, converted by molar mass.
